Anti-infective test results gathered from many reports (values: NIAID ChemDB through PubChem).

Shared fields: tests in culture; species: Mycobacterium smegmatis

A number after MIC or MFC names an inhibition level or a share of isolates. Conditions beyond the fields shown may differ between rows. Blank or dashed fields: not listed here.

SMILES,endpoint,read by,strain,value
O=C(O)c1cccc2oc3ccccc3c(=O)c12,MIC,-,ATCC 607,>32 µg/mL
COC(=O)Cc1ccc2[nH]c3ccc(C)cc3c2c1,MIC99,resazurin / visual reading / absorbance,-,>500 µg/mL
CC(=O)O[C@@H]1CC(=O)O[C@H](C)C[C@@H]2O[C@@H]2/C=C/C(=O)[C@H](C)C[C@H](CC=O)[C@H](OC2OC(C)C(OC3CC(C)(O)C(OC(=O)CC(C)C)C(C)O3)C(N(C)C)C2O)[C@H]1O,MIC,-,mc2155,12.5 µM
CNCC1CCN(c2c(F)cc3c(=O)c(C(=O)O)cn(-c4ccc(F)cc4F)c3c2F)C1,MIC,-,ATCC 19420,0.5 µg/mL
CC1CN(c2c(F)cc3c(=O)c(C(=O)O)cn(C4CC4)c3c2F)CC(C)N1,MIC99,-,KD1990 (GYRA D95A),0.43 µg/mL
CC(C)(C)c1cnc(C(=O)/C=C/c2ccccc2Cl)cn1,MIC,absorbance,CCM,3.9 µg/mL
O=C(O)c1ccc2c(=O)c3ccccc3oc2c1C(=O)O,MIC,-,ATCC 607,>32 µg/mL
O=C(O)Cc1ccc2[nH]c3ccc(F)cc3c2c1,MIC99,resazurin / visual reading / absorbance,-,>500 µg/mL
CC(C)c1cnc(C(=O)/C=C/c2ccc(Br)cc2)cn1,MIC,absorbance,CCM,>500 µg/mL
C1=Cc2cc3ccc(cc4ccc(cc5nc(cc1n2)C=C5)[nH]4)[nH]3,MIC,-,LR222,>40 µg/mL
COc1c(N2CCNCC2)c(F)cc2c(=O)c(C(=O)O)cn(C3CC3)c12,MIC99,-,KD1163 (GRYA+),0.14 µg/mL
OC(c1cc(C23CC4CC(CC(C4)C2)C3)nc2c(Cl)cc(Cl)cc12)C1CCCCN1,MIC,-,mc2155,25 µM
Cc1c2cc[n+](C)cc2c(C)c2c1[nH]c1ccc(Cl)cc12,MIC,resazurin / fluorescence,-,1 µg/mL
COc1cc2ccnc3c2c(c1OC)NC(=O)C3=O,MIC,MTT / low oxygen / turbidity,mc2155,6.25 µg/mL
CNCC1CCN(c2c(F)cc3c(=O)c(C(=O)O)cn(C4CC4)c3c2F)C1,MIC,-,ATCC 19420,0.13 µg/mL
NC(=O)OCC1=C(C(=O)O)N2C(=O)[C@@](O)(NC(=O)Cc3cccs3)[C@H]2SC1,MIC,resazurin,mc2155,16 µg/mL
CN=C1C=Nc2c(O)c(OC)cc3ccnc1c23,MIC,MTT / low oxygen / turbidity,mc2155,1.5 µg/mL
O=C(O)c1cc([N+](=O)[O-])c2oc3ccc([N+](=O)[O-])cc3c(=O)c2c1,MIC,-,ATCC 607,>32 µg/mL
N#CC(C#N)=NNc1cccc(Cl)c1,MIC,-,PMN1 LFR,30 µg/mL
COc1ccc(-c2nn(-c3ccccc3)cc2C2C3=C(NC(C)(c4cc(O)ccc4Cl)NC3=O)Oc3c2c(C)nn3-c2ccccc2)cc1,MIC,agar diffusion / agar,NCIM 5138,90 µg/mL
CC(=O)[C@]1(O)Cc2c(O)c3c(c(O)c2[C@@H](O[C@H]2C[C@H](N)[C@H](O)[C@H](C)O2)C1)C(=O)c1ccccc1C3=O,MIC,-,mc2155,3.125 µM
C=Cc1c(C)c2cc3nc(cc4nc(cc5[nH]c(cc1[nH]2)c(C)c5CC)C(C)=C4CCC(=O)O)C(CCC(=O)O)=C3C,MIC,-,LR222,20 µg/mL
Cc1c(N2CCCC(CN)C2)c(F)cn2c(=O)c(C(=O)O)cc(C3CC3)c12.Cl,MIC,-,ATCC114,1.56 µg/mL
COc1c(N2CCNC(C)C2)c(F)cc2c(=O)c(C(=O)O)cn(C3CC3)c12,MIC99,-,KD1998 (GYRA D95N),0.66 µg/mL
CC[C@H](N)[C@@H]1CCN(c2c(F)cn3c(=O)c(C(=O)O)cc(C4CC4)c3c2C)C1.Cl,MIC,-,ATCC114,0.02 µg/mL
COC(=O)Cc1ccc2c(c1)[nH]c1ccc(Cl)cc12,MIC99,resazurin / visual reading / absorbance,-,>500 µg/mL
CC1CN(c2c(F)cc3c(=O)c(C(=O)O)cn(C4CC4)c3c2F)CCN1,MIC99,-,KD1163 (GRYA+),0.036 µg/mL
CC1CN(c2c(F)cc3c(=O)c(C(=O)O)cn(C4CC4)c3c2C(F)(F)F)CC(C)N1,MIC,-,ATCC 19420,1 µg/mL
C[N+](C)(CCCCCC[N+](C)(C)CCCN1C(=O)c2cccc3cccc(c23)C1=O)CCCN1C(=O)c2cccc3cccc(c23)C1=O,MIC,-,mc2155,12.5 µM
CNCC1CCN(c2c(F)cc3c(=O)c(C(=O)O)cn(C4CC4)c3c2Br)C1,MIC,-,ATCC 19420,≤0.03 µg/mL
CC(C(=O)O)c1ccc2c(c1)[nH]c1ccc(C3CCCCC3)cc12,MIC99,resazurin / visual reading / absorbance,-,>500 µg/mL
Cc1c(N2CCC3CNCC32)c(F)cn2c(=O)c(C(=O)O)cc(C3CC3)c12,MIC,-,ATCC114,0.78 µg/mL
COc1ccc2[nH]c3ccc(CC(=O)O)cc3c2c1,MIC99,resazurin / visual reading / absorbance,-,>500 µg/mL
COC(=O)c1cccc2c(=O)c3ccccc3oc12,MIC,-,ATCC 607,>32 µg/mL
C[C@H]1COC2(CCN(c3nc(=O)c4cc(C(F)(F)F)cc(C(=O)O)c4s3)CC2)O1,MIC99,resazurin,MN84,>100 µg/mL
Cc1c(N2C[C@@H]3CCC[C@@H](N)[C@H]3C2)c(F)cn2c(=O)c(C(=O)O)cc(C3CC3)c12.Cl,MIC,-,ATCC114,0.1 µg/mL
CC(C)c1cnc(C(=O)/C=C/c2ccc(Cl)cc2)cn1,MIC,absorbance,CCM,>125 µg/mL
COc1nc2ccc(Br)cc2cc1[C@@H](c1ccccc1)[C@@](O)(CCN(C)C)c1cccc2ccccc12,MIC80,broth dilution,WILD TYPE,0.06 µM
CCn1cc(C(=O)O)c(=O)c2cc(F)c(N3CC(C)NC(C)C3)nc21,MIC,-,ATCC 19420,2 µg/mL
O=C(O)c1cccc2c(=O)c3ccccc3oc12,MIC,-,ATCC 607,>32 µg/mL
Cc1c(N2CC[C@H](NC(=O)[C@H](C)N)C2)c(F)cn2c(=O)c(C(=O)O)cc(C3CC3)c12.Cl,MIC,-,ATCC114,1.56 µg/mL
Cc1nn(-c2ccccc2)c2c1C(c1cn(-c3ccccc3)nc1-c1ccc(Cl)cc1)C1=C(NC(C)(c3cc(O)cc(O)c3)NC1=O)O2,MIC,agar diffusion / agar,NCIM 5138,100 µg/mL
C=CC1=C(C)c2cc3[n-]c(cc4[n-]c(cc5nc(cc1n2)C(C)=C5C=C)c(C)c4CCC(=O)O)c(CCC(=O)O)c3C.[Mg+2],MIC,-,LR222,20 µg/mL
Cc1c(N2CCC(n3cccc3)CC2)c(F)cn2c(=O)c(C(=O)O)cc(C3CC3)c12,MIC,-,ATCC114,3.1 µg/mL
CCN1CCN(c2c(F)cc3c(=O)c(C(=O)O)cn(C4CC4)c3c2OC)CC1,MIC99,-,KD1998 (GYRA D95N),1.2 µg/mL
O=C1c2cccnc2-c2nccc3c2c1nc1cc(Br)ccc13,MIC,-,mc2155,3.125 µM
CC1CN(c2cc3c(cc2F)c(=O)c(C(=O)O)cn3C2CC2)CC(C)N1,MIC99,-,KD1990 (GYRA D95A),0.96 µg/mL
O=C(O)Cc1ccc2c(c1)[nH]c1ccc(Cl)cc12,MIC99,resazurin / visual reading / absorbance,-,500 µg/mL
N#Cc1cccc2oc3ccccc3c(=O)c12,MIC,-,ATCC 607,>32 µg/mL
CNCC1CCN(c2nc3c(cc2F)c(=O)c(C(=O)O)cn3C2CC2)C1,MIC,-,ATCC 19420,0.25 µg/mL
COc1ccc(-c2nn(-c3ccccc3)cc2C2C3=C(NC(C)(c4cc(O)c(I)cc4Cl)NC3=O)Oc3c2c(C)nn3-c2ccccc2)cc1,MIC,agar diffusion / agar,NCIM 5138,50 µg/mL
CO[C@H]1/C=C/O[C@@]2(C)Oc3c(C)c(O)c4c(O)c(c(CN5CCN(C)CC5)c(O)c4c3C2=O)NC(=O)/C(C)=C\C=C\[C@H](C)[C@H](O)[C@@H](C)[C@@H](O)[C@@H](C)[C@H](OC(C)=O)[C@@H]1C,MIC,-,mc2155,>100 µM
CC[n+]1c(-c2ccccc2)c2cc(N)ccc2c2ccc(N)cc21,MIC,-,mc2155,8 µg/mL
O=C(O)c1cc(C(F)(F)F)cc2c(=O)nc(N3CCN(CC4CCCCC4)CC3)sc12,MIC99,resazurin,MN47,6.25 µg/mL
CCN1CCN(c2c(F)cc3c(=O)c(C(=O)O)cn(C4CC4)c3c2C(F)(F)F)CC1,MIC,-,ATCC 19420,2 µg/mL
CC[C@@H](CO)NCCN[C@@H](CC)CO,MIC99,broth dilution,ATCC 700084,<0.2 µg/mL
O=C(O)Cc1ccc2[nH]c3cc(Cl)ccc3c2c1,MIC99,resazurin / visual reading / absorbance,-,>500 µg/mL
CCCC1=C(CC)c2cc3[nH]c(cc4[nH]c(cc5nc(cc1n2)C(CC)=C5CC)c(CC)c4CC)c(CC)c3CC,MIC,-,LR222,10 µg/mL
O=C(CCCCCCCCCCCCCCCCCNCC(=O)N1CCOP(O)(=S)OCC1)N1CCOP(O)(=S)OCC1,MIC,-,-,7.8 µM
Cc1nn(-c2ccccc2)c2c1C(c1cn(-c3ccccc3)nc1-c1ccc(F)cc1)C1=C(NC(C)(c3cc(O)c(Cl)c(O)c3)NC1=O)O2,MIC,agar diffusion / agar,NCIM 5138,70 µg/mL
CC1CN(c2c(F)cc3c(=O)c(C(=O)O)cn(C4CC4)c3c2F)CC(C)N1,MIC,-,ATCC 19420,0.13 µg/mL
Cc1ccc2[nH]c3c(C)c4ccncc4c(C)c3c2c1,MBC,resazurin / fluorescence,mc2155,>100 µM
O=C(O)c1ccc2c(=O)c3cc([N+](=O)[O-])ccc3oc2c1,MIC,-,ATCC 607,>32 µg/mL
O=C(/C=C/c1ccc(Cl)cc1)c1cnccn1,MIC,absorbance,CCM,15.3 µg/mL
CC(C(=O)O)c1ccc2[nH]c3ccc(Cl)cc3c2c1,MIC99,resazurin / visual reading / absorbance,-,>500 µg/mL
NCC[C@H](O)C(=O)N[C@@H]1C[C@H](N)[C@@H](O[C@H]2O[C@H](CN)[C@@H](O)[C@H](O)[C@H]2O)[C@H](O)[C@H]1O[C@H]1O[C@H](CO)[C@@H](O)[C@H](N)[C@H]1O,MIC,-,A24185,>128 µg/mL
[O-]c1ccccc1CNCCCCCCNCCCCCCCCNCCCCCCNCc1ccccc1[O-],MIC,-,mc2155,12.5 µM
COC1=Cc2ccnc3ccnc(c23)C1=O,MIC,MTT / low oxygen / turbidity,mc2155,6.25 µg/mL
CCC1CN(c2c(F)cc3c(=O)c(C(=O)O)cn(C4CC4)c3c2F)CCN1,MIC99,-,KD2003 (GYRA D95G),1.4 µg/mL
O=C(CCCCCCCCCCCCCCCCCNCC(=O)N1CCOP(=O)(O)OCC1)N1CCOP(=O)(O)OCC1,MIC,-,-,23.4 µM
CC1CN(c2cc3c(cc2F)c(=O)c(C(=O)O)cn3C2CC2)CCN1,MIC99,-,KD1163 (GRYA+),0.1 µg/mL
COc1c(N2CCNCC2)c(F)cc2c(=O)c(C(=O)O)cn(C3CC3)c12,MIC,-,ATCC 19420,0.13 µg/mL
Cc1c2ccncc2c(C)c2c1[nH]c1ccc(Br)cc12,MBC,resazurin / fluorescence,mc2155,>100 µM
Cc1c(N2C[C@@H]3CCC[C@H](N)[C@H]3C2)c(F)cn2c(=O)c(C(=O)O)cc(C3CC3)c12.Cl,MIC,-,ATCC114,0.1 µg/mL

The last 6 rows once more:

SMILES,endpoint,read by,strain,value
CCC1CN(c2c(F)cc3c(=O)c(C(=O)O)cn(C4CC4)c3c2F)CCN1,MIC99,-,KD2003 (GYRA D95G),1.4 µg/mL
O=C(CCCCCCCCCCCCCCCCCNCC(=O)N1CCOP(=O)(O)OCC1)N1CCOP(=O)(O)OCC1,MIC,-,-,23.4 µM
CC1CN(c2cc3c(cc2F)c(=O)c(C(=O)O)cn3C2CC2)CCN1,MIC99,-,KD1163 (GRYA+),0.1 µg/mL
COc1c(N2CCNCC2)c(F)cc2c(=O)c(C(=O)O)cn(C3CC3)c12,MIC,-,ATCC 19420,0.13 µg/mL
Cc1c2ccncc2c(C)c2c1[nH]c1ccc(Br)cc12,MBC,resazurin / fluorescence,mc2155,>100 µM
Cc1c(N2C[C@@H]3CCC[C@H](N)[C@H]3C2)c(F)cn2c(=O)c(C(=O)O)cc(C3CC3)c12.Cl,MIC,-,ATCC114,0.1 µg/mL